Like-named read-outs stand apart in the source and are kept apart here.
Legend:
[1] = target: T1, Nav1.7 (Homo sapiens, UniProt Q15858, W1161R); experiment: IC50 (Nav1.7) µM; conditions: read-out: IC50 (Nav1.7) µM
[2] = target: T2, Nav1.2 (Homo sapiens, UniProt Q99250); experiment: IC50 (Nav1.2) µM; conditions: read-out: IC50 (Nav1.2) µM
[3] = target: T1, Nav1.7; experiment: IC50 (Nav1.7) µM; conditions: read-out: IC50 (Nav1.7) µM; remark: listed apart in the source
[4] = target: T2, Nav1.2; experiment: IC50 (Nav1.2) µM; conditions: read-out: IC50 (Nav1.2) µM; remark: listed apart in the source

By UniProt entry, the sequences of proteins in these tests, tags left out.
UniProt Q15858, whole entry W1161R, looked up: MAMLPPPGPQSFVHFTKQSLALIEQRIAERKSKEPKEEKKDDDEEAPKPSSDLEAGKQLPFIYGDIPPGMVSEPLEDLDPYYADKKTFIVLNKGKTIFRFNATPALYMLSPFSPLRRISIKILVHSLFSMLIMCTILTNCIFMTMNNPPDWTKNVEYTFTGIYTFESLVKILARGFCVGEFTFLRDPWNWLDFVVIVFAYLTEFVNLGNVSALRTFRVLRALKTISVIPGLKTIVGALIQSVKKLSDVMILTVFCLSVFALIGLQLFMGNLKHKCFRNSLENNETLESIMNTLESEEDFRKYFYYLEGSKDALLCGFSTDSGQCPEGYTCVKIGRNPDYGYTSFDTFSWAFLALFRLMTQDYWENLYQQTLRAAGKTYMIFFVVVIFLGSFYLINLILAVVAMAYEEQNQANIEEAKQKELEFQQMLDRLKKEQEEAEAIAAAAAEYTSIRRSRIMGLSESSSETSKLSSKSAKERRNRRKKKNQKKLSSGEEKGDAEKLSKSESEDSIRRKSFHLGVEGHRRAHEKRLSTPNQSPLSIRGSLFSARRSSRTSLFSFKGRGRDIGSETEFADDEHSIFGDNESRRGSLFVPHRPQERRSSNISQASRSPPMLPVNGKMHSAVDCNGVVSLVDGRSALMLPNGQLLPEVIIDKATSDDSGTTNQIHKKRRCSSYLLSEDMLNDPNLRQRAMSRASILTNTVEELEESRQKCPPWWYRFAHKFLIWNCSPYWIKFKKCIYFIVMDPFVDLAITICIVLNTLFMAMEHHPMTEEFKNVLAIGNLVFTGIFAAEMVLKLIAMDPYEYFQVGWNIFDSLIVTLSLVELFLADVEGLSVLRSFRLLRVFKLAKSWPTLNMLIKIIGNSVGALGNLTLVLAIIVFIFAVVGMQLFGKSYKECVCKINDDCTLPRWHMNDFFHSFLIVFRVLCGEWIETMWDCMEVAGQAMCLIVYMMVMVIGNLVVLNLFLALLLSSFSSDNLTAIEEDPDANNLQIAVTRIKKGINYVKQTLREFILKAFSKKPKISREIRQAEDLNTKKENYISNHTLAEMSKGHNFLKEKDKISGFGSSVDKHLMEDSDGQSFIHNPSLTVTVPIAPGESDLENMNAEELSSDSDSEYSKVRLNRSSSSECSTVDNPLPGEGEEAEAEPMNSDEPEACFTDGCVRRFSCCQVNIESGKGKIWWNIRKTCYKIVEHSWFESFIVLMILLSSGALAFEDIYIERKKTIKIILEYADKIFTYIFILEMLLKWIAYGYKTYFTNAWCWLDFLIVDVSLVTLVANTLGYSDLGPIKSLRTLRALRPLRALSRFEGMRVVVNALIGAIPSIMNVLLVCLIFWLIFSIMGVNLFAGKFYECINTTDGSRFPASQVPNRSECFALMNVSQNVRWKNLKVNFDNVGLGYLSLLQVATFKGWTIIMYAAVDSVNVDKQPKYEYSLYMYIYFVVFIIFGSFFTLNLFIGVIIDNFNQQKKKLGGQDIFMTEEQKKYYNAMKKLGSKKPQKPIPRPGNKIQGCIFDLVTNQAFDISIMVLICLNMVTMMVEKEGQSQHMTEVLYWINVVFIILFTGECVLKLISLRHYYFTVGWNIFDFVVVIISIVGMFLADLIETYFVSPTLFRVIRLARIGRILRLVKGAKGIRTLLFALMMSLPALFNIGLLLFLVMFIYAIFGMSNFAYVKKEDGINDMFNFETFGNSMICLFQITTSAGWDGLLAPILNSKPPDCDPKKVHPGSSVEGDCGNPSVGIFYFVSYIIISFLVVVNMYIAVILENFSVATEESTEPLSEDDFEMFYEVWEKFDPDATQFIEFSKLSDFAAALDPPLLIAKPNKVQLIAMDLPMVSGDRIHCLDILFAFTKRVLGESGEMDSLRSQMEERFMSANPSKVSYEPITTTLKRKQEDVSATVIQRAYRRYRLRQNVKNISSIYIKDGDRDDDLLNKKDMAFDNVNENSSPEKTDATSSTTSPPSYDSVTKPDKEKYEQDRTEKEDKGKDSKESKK
UniProt Q99250, whole entry, looked up: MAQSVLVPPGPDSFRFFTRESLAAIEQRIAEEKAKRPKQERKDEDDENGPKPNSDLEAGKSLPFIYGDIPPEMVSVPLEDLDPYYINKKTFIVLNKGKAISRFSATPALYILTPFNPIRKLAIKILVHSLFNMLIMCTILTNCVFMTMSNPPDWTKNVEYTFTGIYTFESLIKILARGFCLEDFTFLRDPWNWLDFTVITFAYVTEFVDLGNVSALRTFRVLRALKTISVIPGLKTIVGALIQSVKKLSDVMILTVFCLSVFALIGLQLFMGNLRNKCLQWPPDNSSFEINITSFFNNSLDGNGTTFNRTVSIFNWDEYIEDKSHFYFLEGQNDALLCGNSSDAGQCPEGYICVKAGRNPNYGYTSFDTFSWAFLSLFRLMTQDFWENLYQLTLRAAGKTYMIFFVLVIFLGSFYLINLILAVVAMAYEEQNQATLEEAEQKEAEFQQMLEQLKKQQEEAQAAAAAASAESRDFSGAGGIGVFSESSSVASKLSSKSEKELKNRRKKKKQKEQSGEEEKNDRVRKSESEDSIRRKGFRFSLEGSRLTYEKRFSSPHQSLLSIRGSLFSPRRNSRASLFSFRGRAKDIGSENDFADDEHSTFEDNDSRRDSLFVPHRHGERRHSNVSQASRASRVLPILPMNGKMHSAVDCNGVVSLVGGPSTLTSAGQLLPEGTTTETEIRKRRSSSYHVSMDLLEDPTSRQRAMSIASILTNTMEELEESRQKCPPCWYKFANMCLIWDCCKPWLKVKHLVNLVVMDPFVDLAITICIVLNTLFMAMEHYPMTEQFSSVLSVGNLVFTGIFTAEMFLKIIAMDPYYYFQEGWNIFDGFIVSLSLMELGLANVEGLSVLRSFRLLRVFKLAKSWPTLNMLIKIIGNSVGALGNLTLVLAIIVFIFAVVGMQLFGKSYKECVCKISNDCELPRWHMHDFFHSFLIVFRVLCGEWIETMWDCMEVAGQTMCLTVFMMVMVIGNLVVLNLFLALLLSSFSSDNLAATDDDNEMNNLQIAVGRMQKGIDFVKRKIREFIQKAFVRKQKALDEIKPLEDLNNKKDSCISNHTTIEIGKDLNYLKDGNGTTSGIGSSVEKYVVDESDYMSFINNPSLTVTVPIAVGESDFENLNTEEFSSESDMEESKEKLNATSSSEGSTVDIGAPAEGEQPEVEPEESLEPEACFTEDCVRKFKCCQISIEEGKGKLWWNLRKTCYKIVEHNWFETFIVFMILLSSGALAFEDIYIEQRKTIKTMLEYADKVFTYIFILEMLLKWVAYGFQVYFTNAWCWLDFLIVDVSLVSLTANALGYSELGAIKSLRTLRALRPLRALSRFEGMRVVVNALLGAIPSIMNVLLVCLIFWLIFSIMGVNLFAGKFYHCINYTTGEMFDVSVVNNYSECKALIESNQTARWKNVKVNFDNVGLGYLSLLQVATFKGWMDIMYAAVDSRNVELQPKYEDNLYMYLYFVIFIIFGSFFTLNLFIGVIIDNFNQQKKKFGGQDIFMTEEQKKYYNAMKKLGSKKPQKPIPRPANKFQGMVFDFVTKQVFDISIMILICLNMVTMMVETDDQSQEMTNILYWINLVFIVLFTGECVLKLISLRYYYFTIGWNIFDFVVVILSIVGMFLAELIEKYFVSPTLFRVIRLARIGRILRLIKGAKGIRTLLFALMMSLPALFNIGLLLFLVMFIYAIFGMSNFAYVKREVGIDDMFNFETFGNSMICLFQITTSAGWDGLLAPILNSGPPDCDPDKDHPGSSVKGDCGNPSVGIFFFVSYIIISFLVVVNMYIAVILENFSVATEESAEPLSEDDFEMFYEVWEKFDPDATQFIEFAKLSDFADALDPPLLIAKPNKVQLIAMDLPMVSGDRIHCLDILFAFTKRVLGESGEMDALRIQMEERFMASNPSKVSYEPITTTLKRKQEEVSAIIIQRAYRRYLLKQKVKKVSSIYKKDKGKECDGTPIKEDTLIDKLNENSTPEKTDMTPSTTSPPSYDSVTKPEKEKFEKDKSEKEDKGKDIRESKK

SMILES | IC50 [1] | IC50 [2] | IC50 [3] | IC50 [4]
CC[C@H](C)[C@@H]1NC(=O)[C@H](CCCNC(=N)N)NC(=O)[C@H](CC(C)C)NC(=O)[C@@H](NC(=O)[C@H](CC(N)=O)NC(=O)[C@@H]2CCCN2C(=O)CN)CSSC[C@@H]2NC(=O)[C@@H]3CSSC[C@@H](C(=O)N[C@@H](CCCCN)C(=O)N[C@@H](Cc4ccc(O)cc4)C(=O)N[C@@H](CO)C(=O)N[C@H](C(=O)N[C@H](C(=O)N[C@@H](CCCCN)C(=O)O)[C@@H](C)CC)[C@@H](C)CC)NC(=O)[C@H](Cc4c[nH]c5ccccc45)NC(=O)[C@H](CCCNC(=N)N)NC(=O)[C@H]([C@@H](C)O)NC(=O)[C@H](CCCCN)NC(=O)[C@H](CCCCN)NC(=O)[C@H](CO)NC(=O)[C@H](CSSC[C@H](NC(=O)[C@H](C)NC(=O)[C@H](CCCCN)NC(=O)[C@H](Cc4ccccc4)NC1=O)C(=O)N[C@@H](CC(N)=O)C(=O)N1CCC[C@H]1C(=O)N[C@@H](CO)C(=O)N[C@@H](CC(N)=O)C(=O)N[C@@H](CC(=O)O)C(=O)N[C@@H](CCC(N)=O)C(=O)N3)NC(=O)[C@H](C(C)C)NC(=O)[C@H](CC(C)C)NC(=O)[C@H](CCCCN)NC(=O)[C@H](CO)NC(=O)[C@H](CO)NC(=O)[C@H](CCCCN)NC2=O | 0.02 µM | 0.32 µM | 0.04 µM | 0.87 µM
CC[C@H](C)[C@H](NC(=O)[C@H](CO)NC(=O)[C@H](Cc1ccc(O)cc1)NC(=O)[C@H](CCCCN)NC(=O)[C@@H]1CSSC[C@@H]2NC(=O)[C@H](CCC(N)=O)NC(=O)[C@H](CC(=O)O)NC(=O)[C@H](CC(N)=O)NC(=O)[C@H](CO)NC(=O)[C@@H]3CCCN3C(=O)[C@H](CC(N)=O)NC(=O)[C@@H]3CSSC[C@H](NC(=O)[C@H](C(C)C)NC(=O)[C@H](CC(C)C)NC(=O)[C@H](CCCCN)NC(=O)[C@H](CO)NC(=O)[C@H](CO)NC(=O)[C@H](CCCCN)NC(=O)[C@H](CSSC[C@H](NC(=O)[C@H](CC(N)=O)NC(=O)[C@@H]4CCCN4C(=O)CN)C(=O)N[C@@H](CC(C)C)C(=O)N[C@@H](CCCNC(=N)N)C(=O)N[C@@H]([C@@H](C)CC)C(=O)N[C@@H](Cc4ccccc4)C(=O)N[C@@H](CCCCN)C(=O)N[C@@H](C)C(=O)N3)NC2=O)C(=O)N[C@@H](CO)C(=O)N[C@@H](CCCNC(=N)N)C(=O)N[C@@H](CCCCN)C(=O)N[C@@H]([C@@H](C)O)C(=O)N[C@@H](CCCNC(=N)N)C(=O)N[C@@H](Cc2c[nH]c3ccccc23)C(=O)N1)C(=O)NCC(=O)N[C@@H](CCCCN)C(=O)O | – | 0.02 µM | 0.01 µM | 0.03 µM
CC[C@H](C)[C@H](NC(=O)[C@H](CCC(N)=O)NC(=O)[C@H](Cc1ccc(O)cc1)NC(=O)[C@H](CCCCN)NC(=O)[C@@H]1CSSC[C@@H]2NC(=O)[C@H](CCC(N)=O)NC(=O)[C@H](CC(=O)O)NC(=O)[C@H](CC(N)=O)NC(=O)[C@H](CO)NC(=O)[C@@H]3CCCN3C(=O)[C@H](CC(N)=O)NC(=O)[C@@H]3CSSC[C@H](NC(=O)[C@H](C(C)C)NC(=O)[C@H](CC(C)C)NC(=O)[C@H](CCCCN)NC(=O)[C@H](CO)NC(=O)[C@H](CO)NC(=O)[C@H](CCCCN)NC(=O)[C@H](CSSC[C@H](NC(=O)[C@H](CCC(=O)O)NC(=O)[C@@H]4CCCN4C(=O)CN)C(=O)N[C@@H](CC(C)C)C(=O)N[C@@H](CCC(=O)O)C(=O)N[C@@H]([C@@H](C)CC)C(=O)N[C@@H](Cc4ccccc4)C(=O)N[C@@H](CCCCN)C(=O)N[C@@H](CCC(=O)O)C(=O)N3)NC2=O)C(=O)N[C@@H](CO)C(=O)N[C@@H](CCCNC(=N)N)C(=O)N[C@@H](CCCCN)C(=O)N[C@@H]([C@@H](C)O)C(=O)N[C@@H](CCCNC(=N)N)C(=O)N[C@@H](Cc2c[nH]c3ccccc23)C(=O)N1)C(=O)NCC(=O)N[C@@H](CCCCN)C(=O)O | – | – | 0.04 µM | 0.02 µM
CC[C@H](C)[C@H](NC(=O)[C@H](CCC(N)=O)NC(=O)[C@H](Cc1ccc(O)cc1)NC(=O)[C@H](CCCCN)NC(=O)[C@@H]1CSSC[C@@H]2NC(=O)[C@H](C)NC(=O)[C@H](CC(=O)O)NC(=O)[C@H](CC(N)=O)NC(=O)[C@H](CO)NC(=O)[C@@H]3CCCN3C(=O)[C@H](CC(N)=O)NC(=O)[C@@H]3CSSC[C@H](NC(=O)[C@H](C(C)C)NC(=O)[C@H](CC(C)C)NC(=O)[C@H](CCCCN)NC(=O)[C@H](CO)NC(=O)[C@H](CO)NC(=O)[C@H](CCCCN)NC(=O)[C@H](CSSC[C@H](NC(=O)[C@H](CCC(=O)O)NC(=O)[C@@H]4CCCN4C(=O)CN)C(=O)N[C@@H](CC(C)C)C(=O)N[C@@H](CCC(=O)O)C(=O)N[C@@H]([C@@H](C)CC)C(=O)N[C@@H](Cc4ccccc4)C(=O)N[C@@H](CCCCN)C(=O)N[C@@H](C)C(=O)N3)NC2=O)C(=O)N[C@@H](CO)C(=O)N[C@@H](CCCNC(=N)N)C(=O)N[C@@H](CCCCN)C(=O)N[C@@H]([C@@H](C)O)C(=O)N[C@@H](CCCNC(=N)N)C(=O)N[C@@H](Cc2c[nH]c3ccccc23)C(=O)N1)C(=O)NCC(=O)N[C@@H](CCCCN)C(=O)O | – | – | 0.05 µM | 0.07 µM
CC[C@H](C)[C@H](NC(=O)[C@H](CCC(N)=O)NC(=O)[C@H](Cc1ccc(O)cc1)NC(=O)[C@H](CCCCN)NC(=O)[C@@H]1CSSC[C@@H]2NC(=O)[C@H](CCC(N)=O)NC(=O)[C@H](CC(=O)O)NC(=O)[C@H](CC(N)=O)NC(=O)[C@H](CO)NC(=O)[C@@H]3CCCN3C(=O)[C@H](CC(N)=O)NC(=O)[C@@H]3CSSC[C@H](NC(=O)[C@H](C(C)C)NC(=O)[C@H](CC(C)C)NC(=O)[C@H](CCCCN)NC(=O)[C@H](CO)NC(=O)[C@H](CO)NC(=O)[C@H](C)NC(=O)[C@H](CSSC[C@H](NC(=O)[C@H](CCC(=O)O)NC(=O)[C@@H]4CCCN4C(=O)CN)C(=O)N[C@@H](CC(C)C)C(=O)N[C@@H](CCC(=O)O)C(=O)N[C@@H]([C@@H](C)CC)C(=O)N[C@@H](Cc4ccccc4)C(=O)N[C@@H](CCCCN)C(=O)N[C@@H](C)C(=O)N3)NC2=O)C(=O)N[C@@H](CO)C(=O)N[C@@H](CCCNC(=N)N)C(=O)N[C@@H](CCCCN)C(=O)N[C@@H]([C@@H](C)O)C(=O)N[C@@H](CCCNC(=N)N)C(=O)N[C@@H](Cc2c[nH]c3ccccc23)C(=O)N1)C(=O)NCC(=O)N[C@@H](CCCCN)C(=O)O | – | – | 0.05 µM | 0.52 µM
CC[C@H](C)[C@H](NC(=O)[C@H](CCC(N)=O)NC(=O)[C@H](Cc1ccc(O)cc1)NC(=O)[C@H](CCCCN)NC(=O)[C@@H]1CSSC[C@@H]2NC(=O)[C@H](CCC(N)=O)NC(=O)[C@H](CC(=O)O)NC(=O)[C@H](CC(N)=O)NC(=O)[C@H](CO)NC(=O)[C@@H]3CCCN3C(=O)[C@H](CC(N)=O)NC(=O)[C@@H]3CSSC[C@H](NC(=O)[C@H](C(C)C)NC(=O)[C@H](CC(C)C)NC(=O)[C@H](CCCCN)NC(=O)[C@H](CO)NC(=O)[C@H](CO)NC(=O)[C@H](CCCCN)NC(=O)[C@H](CSSC[C@H](NC(=O)[C@H](CCC(=O)O)NC(=O)[C@@H]4CCCN4C(=O)CN)C(=O)N[C@@H](CC(C)C)C(=O)N[C@@H](CCC(=O)O)C(=O)N[C@@H]([C@@H](C)CC)C(=O)N[C@@H](Cc4ccccc4)C(=O)N[C@@H](CCCCN)C(=O)N[C@@H](C)C(=O)N3)NC2=O)C(=O)N[C@@H](CO)C(=O)N[C@@H](CCCNC(=N)N)C(=O)N[C@@H](CCCCN)C(=O)N[C@@H]([C@@H](C)O)C(=O)N[C@@H](C)C(=O)N[C@@H](Cc2c[nH]c3ccccc23)C(=O)N1)C(=O)NCC(=O)N[C@@H](CCCCN)C(=O)O | – | – | 0.05 µM | 0.2 µM

Source: patent US10414808B2 (priority 2012, dated 2019)
